The values below come from paper PMC11696893.

Amino acid sequences for entries named in this document (tags omitted). Residues count along the entry.
UniProt P27395, 2528-3432: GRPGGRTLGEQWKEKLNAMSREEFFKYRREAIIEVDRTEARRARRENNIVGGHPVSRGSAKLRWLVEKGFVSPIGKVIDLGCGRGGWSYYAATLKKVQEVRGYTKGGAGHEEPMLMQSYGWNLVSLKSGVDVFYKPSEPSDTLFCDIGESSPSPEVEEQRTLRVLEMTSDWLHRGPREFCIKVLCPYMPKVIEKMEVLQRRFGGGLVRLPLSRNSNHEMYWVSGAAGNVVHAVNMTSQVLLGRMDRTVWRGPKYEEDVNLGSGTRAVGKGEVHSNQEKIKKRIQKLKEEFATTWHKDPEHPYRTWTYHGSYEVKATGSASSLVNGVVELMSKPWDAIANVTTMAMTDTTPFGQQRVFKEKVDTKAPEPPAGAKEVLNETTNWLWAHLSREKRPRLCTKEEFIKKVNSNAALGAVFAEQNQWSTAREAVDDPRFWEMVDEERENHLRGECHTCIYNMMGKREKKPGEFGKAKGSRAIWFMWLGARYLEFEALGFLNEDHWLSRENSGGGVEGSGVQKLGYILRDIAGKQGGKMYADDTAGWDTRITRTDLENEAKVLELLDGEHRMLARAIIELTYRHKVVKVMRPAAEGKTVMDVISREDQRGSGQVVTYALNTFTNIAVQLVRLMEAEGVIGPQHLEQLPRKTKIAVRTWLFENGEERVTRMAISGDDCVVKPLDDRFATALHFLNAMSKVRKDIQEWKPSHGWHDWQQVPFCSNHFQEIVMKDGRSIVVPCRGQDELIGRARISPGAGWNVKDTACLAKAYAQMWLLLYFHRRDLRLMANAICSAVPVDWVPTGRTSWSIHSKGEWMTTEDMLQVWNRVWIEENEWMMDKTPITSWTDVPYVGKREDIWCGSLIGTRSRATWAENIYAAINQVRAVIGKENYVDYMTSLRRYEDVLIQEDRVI
UniProt P03314, 2507-3411: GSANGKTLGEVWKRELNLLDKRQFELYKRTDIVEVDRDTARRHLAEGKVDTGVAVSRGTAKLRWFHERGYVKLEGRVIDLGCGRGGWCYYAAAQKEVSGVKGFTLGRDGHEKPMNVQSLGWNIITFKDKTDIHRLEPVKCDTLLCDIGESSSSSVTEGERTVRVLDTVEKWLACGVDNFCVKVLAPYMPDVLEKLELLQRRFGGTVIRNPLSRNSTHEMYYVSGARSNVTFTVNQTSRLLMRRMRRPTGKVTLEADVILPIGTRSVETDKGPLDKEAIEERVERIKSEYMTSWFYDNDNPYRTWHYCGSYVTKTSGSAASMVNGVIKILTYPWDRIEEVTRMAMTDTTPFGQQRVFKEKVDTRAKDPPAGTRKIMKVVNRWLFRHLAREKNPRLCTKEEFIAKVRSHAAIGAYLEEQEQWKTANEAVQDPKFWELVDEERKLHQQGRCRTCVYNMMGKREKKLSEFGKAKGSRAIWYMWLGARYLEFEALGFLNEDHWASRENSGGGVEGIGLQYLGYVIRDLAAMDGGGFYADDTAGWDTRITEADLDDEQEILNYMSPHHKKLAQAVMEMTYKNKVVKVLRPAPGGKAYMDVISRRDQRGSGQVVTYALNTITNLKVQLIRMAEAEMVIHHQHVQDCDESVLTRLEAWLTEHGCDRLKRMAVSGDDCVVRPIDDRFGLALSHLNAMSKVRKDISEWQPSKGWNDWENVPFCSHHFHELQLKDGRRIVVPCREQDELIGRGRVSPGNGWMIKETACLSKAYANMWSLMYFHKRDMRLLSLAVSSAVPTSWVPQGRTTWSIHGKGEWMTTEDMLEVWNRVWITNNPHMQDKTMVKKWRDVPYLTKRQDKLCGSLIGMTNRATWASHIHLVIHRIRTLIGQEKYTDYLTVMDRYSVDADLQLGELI

Data set [1] has as its target JEV NS5 (Japanese encephalitis virus) (UniProt P27395). Briefly: EMSA / SDS-PAGE cross-linking. Conditions: C5, C10, C11 = 5-(ethoxysquaramate-linked) cytidine (CESQ); recombinant protein; label: radioactive; letters put together from the description.
Data set [2] has as its target YFV NS5 (Yellow fever virus) (UniProt P03314). As to the kind of experiment: EMSA / SDS-PAGE cross-linking. The conditions noted are these: C5, C10, C11 = 5-(ethoxysquaramate-linked) cytidine (CESQ); recombinant protein; label: radioactive; letters put together from the description.

Construct, isoform or probe ends are uncertain for at least one entry. At least one verdict was read from the data and is not stated in words by the source.

In the case of “GAUACUAAGCCAAUAAAUUGAGAGAGAUAAAUUUAU [36_vRNA_3fCESQ]”, the binding result in data set [1] and in data set [2] was “binds” in each case.
